Results deposited as PubChem BioAssay AID504761 (Drosophila RNAi Screening Center, 2011).
Aim: 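Genome-wide fly cell screen for genes dengue virus requires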 (primary screen). System: D.Mel-2 cells from Drosophila. Reagents: long dsRNA against Drosophila genes. Treatment: infection with dengue virus type 2; dose and infection time not stated. Measured: 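Cells stained for dengue envelope protein and imaged; percent of infected cells per well on duplicate plates, ranked by infection, with stained nuclei counted for cell number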. Reading the numbers: infection score: higher = more virus-infected cells. Rule for the call: 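Low infection ranks in the two replicates (chance level up to 0.065) followed by a retest with a 1.5-fold or larger significant decrease, p below 0.05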. Meaning of the calls: active = confirmed: knock-down lowers infection; inactive = not picked or not confirmed.
The deposit covers about 22,000 reagents; this is a random part of those that have a named target and a result. In the full data, 116 (0.52%) got an active call. 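Calls depend on retest data that are not deposited; infection was ranked per plate without normalising between plates; the unit of the infection score is not given.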 Further read-outs or replicates are left out here. Not given: the amount of reagent, the time to read-out.

no.	Target gene	amplicon	infection score, replicate 1	activity call
1	PpY-55A (Protein phosphatase Y at 55A)	DRSC07513	7.18	inactive
2	PpY-55A (Protein phosphatase Y at 55A)	DRSC23328	0.78	inactive
3	PpY-55A (Protein phosphatase Y at 55A)	DRSC26547	14.1	inactive
4	Chd1 (Chromodomain-helicase-DNA-binding protein 1)	DRSC00745	4.66	inactive
5	Bcs1 (Bcs1 chaperone)	DRSC02789	1.41	inactive
6	ClC-b (Chloride channel-b)	DRSC07220	6.51	inactive
7	RpLP1 (Ribosomal protein LP1)	DRSC00783	2.64	inactive
8	RpLP1 (Ribosomal protein LP1)	DRSC22145	2.19	inactive
9	RpLP1 (Ribosomal protein LP1)	DRSC23411	4.18	inactive
10	Myt1	DRSC11228	3.78	inactive
11	Myt1	DRSC30071	2.15	inactive
12	Snx27 (Sorting nexin 27)	DRSC17786	11.4	inactive
13	Snx27 (Sorting nexin 27)	DRSC18282	7.98	inactive
14	Snx27 (Sorting nexin 27)	DRSC18284	5.73	inactive

Entries above whose gene name begins with P or p (3):
Target gene	amplicon	infection score, replicate 1	activity call
PpY-55A (Protein phosphatase Y at 55A)	DRSC07513	7.18	inactive
PpY-55A (Protein phosphatase Y at 55A)	DRSC23328	0.78	inactive
PpY-55A (Protein phosphatase Y at 55A)	DRSC26547	14.1	inactive

Further reagents follow:
no.	Target gene	amplicon	infection score, replicate 1	activity call
15	CG11696	DRSC19417	4.28	inactive
16	CG4741	DRSC04485	9.62	inactive
17	CG4741	DRSC25673	7.76	inactive
18	Gp210 (Glycoprotein 210 kDa)	DRSC04861	1.89	inactive
19	Gp210 (Glycoprotein 210 kDa)	DRSC04900	10.2	inactive
20	CG30395	DRSC03896	1.84	inactive
21	CG3638	DRSC18533	3.09	inactive
22	CG3638	DRSC25349	2.44	inactive
23	Klp64D (Kinesin-like protein at 64D)	DRSC11204	4.73	inactive
